Anti-infective test results gathered from many reports (values: NIAID ChemDB through PubChem).

Common to all: target-level tests; organism: Hepatitis C virus; protein: NS3 protease

a–b is a range or a potency band. Conditions beyond the fields shown may differ between rows. Inhibition is in % at the dose shown (toxicity tests: loss of growth or viability). ICn: concentration for n% inhibition. An empty or dashed field is not shown.

{"compound": "CC[C@@H](C)[C@H](NC(=O)[C@H](CC(C)C)NC(=O)[C@@H](CCC(=O)O)NC(=O)[C@H](CC(=O)O)NOC(=O)CCC(=O)O)C(=O)N[C@@H](CC1CCCCC1)C(=O)NC1(C(=O)C(=O)O)CC1", "read-out": "Ki", "value": "0.098 µM"}
{"compound": "CC(C)C[C@H](NC(=O)[C@H](NC(=O)[C@@H](N)CC(=O)O)C(C)C)C(=O)N[C@@H](CCC(=O)O)C(=O)N[C@@H](CC1CCCCC1)C(=O)N[C@@H](CS)C(=O)O", "read-out": "IC50", "value": "0.47 µM"}
{"compound": "CC(C)[C@H](NC(=O)[C@H](CCC(=O)O)NC(=O)[C@@H](N)CC(=O)O)C(=O)N[C@H](C(=O)N1CCC[C@H]1C(=O)NC(C)(C)B1O[C@@H]2CC3CC(C3(C)C)[C@]2(C)O1)C(C)C", "read-out": "Ki", "value": ">100 µM"}
{"compound": "CCC(CC)C(O)C(=O)N1C[C@H](C2CCCC2)C[C@@H]1C(=O)N[C@@H](CC(F)F)C(=O)NCCc1c(F)cc(C(=O)O)cc1F", "read-out": "IC50", "value": "50 µM"}
{"compound": "C=C[C@@H]1C[C@]1(NC(=O)[C@@H]1C[C@@H](Oc2cc(-c3ccccc3)nc3cc(CO)ccc23)CN1C(=O)[C@@H](NC(=O)OC(C)(C)C)C(C)(C)C)C(=O)O", "strain or isolate": "1b", "method": "radiometric", "read-out": "IC50", "value": "0.08 µM"}
{"compound": "CC(=O)N[C@H](C(=O)N[C@H](C(=O)N1C[C@H](O)CC1C(=O)NC1(C(=O)O)CC1)C(C)C)C1CCCCC1", "read-out": "IC50", "value": ">1000 µM"}
{"compound": "CC[C@@H](C=O)NC(=O)[C@@H]1C[C@@H](OCc2ccccc2)CN1C(=O)[C@@H](NS(=O)(=O)Cc1ccccc1)C(C)C", "read-out": "Ki", "value": ">100 µM"}
{"compound": "CC(C)C[C@H](NC(=O)[C@H](Cc1ccc(O)cc1)NC(=O)[C@@H](N)CC(=O)O)C(=O)N[C@@H](CCC(=O)O)C(=O)N[C@@H](CC1CCCCC1)C(=O)N[C@@H](CS)C(=O)O", "read-out": "IC50", "value": "0.135 µM"}
{"compound": "CC[C@@H](C)[C@H](NC(=O)[C@H](CC(C)C)NC(=O)[C@@H](CCC(=O)O)NC(=O)[C@H](CC(=O)O)NOC(=O)CCC(=O)O)C(=O)N[C@@H](CC1CCCCC1)C(=O)NC1(C(=O)c2nn[nH]n2)CC1", "read-out": "Ki", "value": "1.9 µM"}
{"compound": "CC(=O)N[C@H](C(=O)N[C@H](C(=O)N1C[C@H](Oc2nccc3ccccc23)CC1C(=O)NC1(C(=O)O)CC1)C(C)C)C1CCCCC1", "read-out": "IC50", "value": "8 µM"}
{"compound": "C=C[C@@H]1C[C@]1(NC(=O)[C@@H]1C[C@@H](Oc2cc(-c3ccccc3)nc3cc(CO)ccc23)CN1C(=O)[C@@H]1CSCN1)C(=O)O", "strain or isolate": "1b", "method": "radiometric", "read-out": "IC50", "value": "13 µM"}
{"compound": "CCC[C@H](NC(=O)[C@H](CC1CCCCC1)NC(=O)[C@H](CCC(=O)O)NC(=O)[C@H](CC(C)C)NC(=O)[C@H](CCC(=O)O)NC(=O)[C@@H](N)CC(=O)O)C(=O)O", "read-out": "IC50", "value": "1.3 µM"}
{"compound": "CC[C@@H](C=O)NC(=O)[C@@H]1C[C@@H](OCc2ccccc2)CN1C(=O)[C@@H](NC(=O)c1cccc(O)c1C)C(C)C", "read-out": "Ki", "value": "1–100 µM"}
{"compound": "CC(C)C[C@H](NC(=O)[C@H](NC(=O)[C@@H](N)CC(=O)O)C(c1ccccc1)c1ccccc1)C(=O)N[C@@H](CCC(=O)O)C(=O)N[C@@H](CC1CCCCC1)C(=O)N[C@@H](CS)C(=O)O", "read-out": "IC50", "value": "0.276 µM"}
{"compound": "CC[C@@H](C=O)NC(=O)[C@@H]1C[C@@H](OCc2ccccc2)CN1C(=O)[C@@H](NC(=O)c1ccccc1OC)C(C)C", "read-out": "Ki", "value": ">100 µM"}
{"compound": "CC[C@H](NC(=O)[C@H](CC1CCCCC1)NC(=O)[C@@H](NC(=O)[C@H](CC(C)C)NC(=O)[C@@H](CCC(=O)O)NC(=O)[C@H](CC(=O)O)NC(C)=O)[C@H](C)CC)C(=O)C(=O)/C=C/CCCC(C)C", "read-out": "Ki", "value": "0.98 µM"}
{"compound": "CC[C@@H](C=O)NC(=O)[C@@H]1C[C@@H](OCc2ccccc2)CN1C(=O)[C@@H](NC(=O)[C@H](CSCc1ccccc1)NC(=O)c1cnccn1)C(C)C", "read-out": "Ki", "value": "1–100 µM"}
{"compound": "CC(=O)N[C@H](C(=O)N[C@H](C(=O)N1C[C@H](Oc2ccccc2-c2ccccc2)CC1C(=O)NC1(C(=O)O)CC1)C(C)C)C1CCCCC1", "read-out": "IC50", "value": ">200 µM"}
{"compound": "C=CCOC(=O)N[C@@H]1C[C@@H](C(=O)N[C@H](C=O)CC)N(C(=O)[C@@H](NC(=O)[C@@H](NC(=O)c2cnccn2)C(C)C)C(C)C)C1", "read-out": "Ki", "value": ">100 µM"}
{"compound": "COc1ccc2nccc(OC3CC(C(=O)NC4(C(=O)O)CC4)N(C(=O)[C@@H](NC(=O)[C@@H](NC(C)=O)C4CCCCC4)C(C)C)C3)c2c1", "read-out": "IC50", "value": "16 µM"}
{"compound": "CC[C@@H](C=O)NC(=O)[C@@H]1C[C@@H](OC(=O)Nc2cccc(C#N)c2)CN1C(=O)[C@@H](NC(=O)[C@@H](NC(=O)c1cnccn1)C(C)C)C(C)C", "read-out": "Ki", "value": "1–100 µM"}
{"compound": "CCC[C@H](NC(=O)[C@@H]1C[C@@H](Oc2cc(-c3ccccc3)nc3cc(OC)ccc23)C[C@H]1C(=O)N[C@@H](C(=O)N[C@H](C(=O)OC)C1CCCCC1)C(C)C)C(=O)O", "read-out": "inhibition", "tested at": "10 µM", "value": "35%"}
{"compound": "CC[C@@H](C=O)NC(=O)[C@@H]1C[C@@H](OC(=O)c2ccc(Cl)c(Cl)c2)CN1C(=O)[C@@H](NC(=O)[C@@H](NC(=O)c1cnccn1)C(C)C)C(C)C", "read-out": "Ki", "value": "1–100 µM"}
{"compound": "O=C(O)c1cc(F)c(CCNC(=O)[C@H](CC(F)F)NC(=O)[C@H]2C[C@@H](C3CCCC3)CN2C(=O)C(O)C2CC2)c(F)c1", "read-out": "IC50", "value": ">100 µM"}
{"compound": "CCC[C@H](NC(=O)[C@@H]1C[C@@H](Oc2cc(-c3ccccc3)nc3cc(OC)ccc23)C[C@H]1C(=O)N[C@H](C(=O)N[C@H](C(=O)OC)C1CCCCC1)C(C)C)C(=O)O", "read-out": "inhibition", "tested at": "10 µM", "value": "100%"}

The last 2 rows once more:

compound | strain or isolate | method | read-out | tested at | value
O=C(O)c1cc(F)c(CCNC(=O)[C@H](CC(F)F)NC(=O)[C@H]2C[C@@H](C3CCCC3)CN2C(=O)C(O)C2CC2)c(F)c1 |  |  | IC50 |  | >100 µM
CCC[C@H](NC(=O)[C@@H]1C[C@@H](Oc2cc(-c3ccccc3)nc3cc(OC)ccc23)C[C@H]1C(=O)N[C@H](C(=O)N[C@H](C(=O)OC)C1CCCCC1)C(C)C)C(=O)O |  |  | inhibition | 10 µM | 100%